# The entries are a selection whose mix differs from that of the whole data set. Records with an inconclusive call do not appear. Calls of active or inactive are those of the source. The call rests on the fitted dose curve; tested in HEK293 cells.
# Assay: qHTS for Inhibitors of binding or entry into cells for Marburg Virus
# Conditions: Marburg virus pseudotype entry/binding inhibition, cell-based
# On the % scale 0 is the no-effect control and ±100 the full control effect.
compound,measurement,setting,value
CN(C)CCS,"activity change, negative = inhibition",at 49.2 µM (top of the series),inactive: 9.13%
O=[N+]([O-])[O-].[NH4+],"activity change, negative = inhibition",at 49.2 µM (top of the series),inactive: 1.14%
O=C(O)C1(O)c2ccccc2-c2ccccc21,"activity change, negative = inhibition",at 49.2 µM (top of the series),inactive: 24.9%
O=C(O)C(O)(c1ccccc1)c1ccccc1,"activity change, negative = inhibition",at 49.2 µM (top of the series),inactive: 3.59%
O=[N+]([O-])c1cccc([N+](=O)[O-])c1,"activity change, negative = inhibition",at 49.2 µM (top of the series),inactive: 10%
same,"activity change, negative = inhibition",at 107 µM (top of the series),inactive: 50%
O=[N+]([O-])OCC(CO[N+](=O)[O-])(CO[N+](=O)[O-])CO[N+](=O)[O-],"activity change, negative = inhibition",at 49.2 µM (top of the series),inactive: -4.36%
CC(C)N(CCCl)C(C)C,"activity change, negative = inhibition",at 49.2 µM (top of the series),inactive: -7.51%
C/C1=C2N=C(/C=C3N=C(/C(C)=C4\[N-][C@@](C)([C@@H]5N=C1[C@](C)(CCC(=O)NC[C@@H](C)OP(=O)([O-])O[C@H]1[C@@H](O)[C@@H](n6cnc7cc(C)c(C)cc76)O[C@@H]1CO)[C@H]5CC(N)=O)[C@@](C)(CC(N)=O)[C@@H]4CCC(N)=O)[C@@](C)(CC(N)=O)[C@@H]\3CCC(N)=O)C(C)(C)[C@@H]/2CCC(N)=O.[C-]#N.[Co+3],"activity change, negative = inhibition",at 17.8 µM (top of the series),inactive: -15.4%
CCN(CCCl)Cc1ccccc1C,"activity change, negative = inhibition",at 49.2 µM (top of the series),inactive: 4.84%
CCOP(=O)(CC)Oc1ccc([N+](=O)[O-])cc1 (stereo not given),"activity change, negative = inhibition",at 49.2 µM (top of the series),inactive: 18.4%
Cc1cccc([N+](=O)[O-])c1[N+](=O)[O-],"activity change, negative = inhibition",at 107 µM (top of the series),inactive: 46.8%
CP1(=O)OC(CCl)CC(CCl)O1 (stereo not given),"activity change, negative = inhibition",at 49.2 µM (top of the series),inactive: 76.6%
OCCSCCO,"activity change, negative = inhibition",at 49.2 µM (top of the series),inactive: -8.05%
CC(C)OP(=O)(F)OC(C)C,"activity change, negative = inhibition",at 49.2 µM (top of the series),inactive: 19.8%

# — PubChem BioAssay AID720532 (National Center for Advancing Translational Sciences (NCATS), 2013)
